Measured values from several laboratories, pooled; numbers as filed in NIAID ChemDB.

Shared fields: whole-cell or culture tests; organism: Herpes simplex virus 2; cell line: VERO; measure: EC50

Blank or dashed fields: not listed here.

| structure | strain or isolate | method | value |
|---|---|---|---|
| O=c1ccn([C@@H]2O[C@H](CO)[C@@H](O)[C@@H]2F)c(=O)[nH]1 | G | plaque count | 0.02 µM |
| COc1cc(OC)c(/C=N/N=C(/N)NO)c(OC)c1.Cc1ccc(S(=O)(=O)O)cc1 | G | plaque count | >50 µM |
| Oc1ccc([C@H]2Oc3cc(O)cc4c3[C@@H]2c2cc(O)cc3c2[C@@H](c2cc(O)cc5c2[C@@H]4[C@H](c2ccc(O)cc2)O5)[C@H](c2ccc(O)cc2)O3)cc1 | - | MTT | 4.2 µM |
| O=C(O)c1ccc2cc(-c3ccccc3)cn2c1 | 186 | plaque count | >100 µM |
| Nc1nc2c(ncn2COCCO)c(=O)[nH]1 | HG-52 | plaque count | 0.5 µM |
| NC1=NC2C(C=CN2CC(CO)CCO)C(=O)N1 | G | plaque count | 1.7 µM |
| Nc1nc2c(ncn2COC(CO)CO)c(=O)[nH]1 | G | plaque count | 0.3 µM |
| O=c1[nH]c(=O)n([C@H]2C[C@H](O)[C@@H](O)O2)cc1C#Cc1ccc2c3cccc4cccc(c5cccc1c52)c43 | 186 | - | 0.052 µM |
| Nc1nc2c(ncn2CCCCO)c(=O)[nH]1 | 91075 | plaque count | 8 µM |
| Nc1nc2c(ncn2CC[C@@H](O)CO)c(=O)[nH]1 | 91075 (acyclovir-resistant) | plaque count | ≥250 µM |
| CC(=O)c1c(-c2ccccc2)cc2ccccn12 | 186 | plaque count | >100 µM |
| CC(=O)c1c(O)c(C(=O)CC(C)C)c(O)c2c1OC(C(C)(C)O)C2 | - | cytopathic effect | 10.4 µM |
| O=C1c2ccccc2C(=O)N1CCCC1=NNC(=Nc2ccccc2)SC1 | SAV | cytopathic effect | 73.05 µg/mL |
| Nc1nc2c(ncn2CCC(COC=O)COC=O)c(=O)[nH]1 | MS | plaque count | 10 µM |
| Cc1cn(N2CC[C@H](CO)[C@H]2CO)c(=O)[nH]c1=O | - | cytopathic effect | >100 µg/mL |
| c1coc(-c2cc3ccccn3c2)c1 | 186 | plaque count | 50–100 µM |
| C#Cc1cn([C@H]2C[C@H](O)[C@@H](COP(=O)(O)CC(=O)O)O2)c(=O)[nH]c1=O | 3345 | plaque count | >200 µM |
| Nc1ccn(N2C[C@H](CO)[C@H]2CO)c(=O)n1 | - | cytopathic effect | >100 µg/mL |
| Oc1ccc([C@H]2c3c(O)cc(O)cc3[C@H]3c4c(cc(O)c5c4[C@H]2[C@@H](c2ccc(O)cc2)[C@@H]5c2cc(O)cc(O)c2)O[C@@H]3c2ccc(O)cc2)cc1 | - | MTT | 3.2 µM |
| Nc1nc2c(ncn2COC(CO)CO)c(=O)[nH]1 | - | cytopathic effect | 0.55 µg/mL |
| Nc1nc2c(ncn2CC2CSC(P(=O)(O)O)O2)c(=O)[nH]1 | 186 | plaque count | 99 µg/mL |
| Nc1nc2c(ncn2[C@H]2CC[C@H](O)[C@H]2CO)c(=O)[nH]1 | MS | cytopathic effect | 0.8 µg/mL |
| Nc1nc2c(ncn2CCCCO)c(=O)[nH]1 | 91075 | plaque count | 8 µM |
| Nc1nc(=O)n([C@@H]2O[C@H](CO)[C@@H](O)[C@@H]2F)cc1I | G-FAU-C2 | plaque count | 3.6 µM |
| Cc1cn([C@@H]2O[C@H](CO)[C@@H](O)[C@@H]2O)c(=O)[nH]c1=O | MS | plaque count | 6.6 µM |
| Clc1ccc(-c2cc3ccccn3c2)cc1Cl | 186 | plaque count | >100 µM |
| C[C@@]1(O)[C@H](O)[C@@H](COP(=O)(O)OP(=O)(O)OP(=O)(O)O)O[C@H]1n1ccc2c(N)ncnc21 | - | cytopathic effect | >320 µM |
| CC(C)OC(=O)c1c(C(C)C)cc2ccccn12 | 186 | plaque count | 50–100 µM |
| Nc1nc2c(ncn2N2CC[C@H](CO)[C@H]2CO)c(=O)[nH]1 | - | cytopathic effect | >100 µg/mL |
| Cn1c(=O)c(C(N)=O)c(O)c2ccc(-c3ccncc3)cc21 | Curtis | plaque count | 2.1 µg/mL |
| CC(C)=CCCC(COS(=O)(=O)O)C1CCC2C3CC=C4C[C@H](O)[C@@H](OS(=O)(=O)O)CC4(C)C3CCC12C | G | plaque count | 51.5 µg/mL |
| CC(=O)c1ccc2cc(-c3ccccc3)cn2c1 | 186 | plaque count | >100 µM |
| CC1(C)C=C2[C@H]3CC[C@@H]4[C@@]5(C)CCC(=O)C(C)(C)[C@@H]5CC[C@@]4(C)[C@]3(C)CC[C@@]2(C(=O)O)CC1 | ITO-1262 | plaque count | 5.8 µg/mL |
| CC[C@H](C)[C@H](N)[C@H](O)n1nc(C)c2c(Cl)c3cc(OC)ccc3nc21 | - | plaque count | 0.8 µg/mL |
| Nc1ncnc2c1ncn2[C@@H]1O[C@H](CO)[C@@H](O)[C@@H]1O | - | cytopathic effect | 10 µg/mL |
| Oc1ccc([C@@H]2c3c(O)cc(O)cc3[C@@H]3c4c(cc(O)cc4[C@H]2[C@H]2c4cc(O)cc5c4[C@@H](c4cc(O)cc(O)c4[C@H]2c2ccc(O)cc2)[C@@H](c2ccc(O)cc2)O5)O[C@@H]3c2ccc(O)cc2)cc1 | - | MTT | 3.4 µM |
| CCCCNc1cn([C@@H]2C[C@H](CO)[C@@H](O)C2)c(=O)[nH]c1=O | MS | cytopathic effect | 229 µg/mL |
| COC(=O)C(Cc1c[nH]c2ccccc12)NP(=O)(O)OCC1C/C1=C/n1cnc2c(N)ncnc21 | - | plaque count | 40 µM |
| C=C(C)[C@@H]1CC[C@]2(CO)CC[C@]3(C)[C@H](CC[C@@H]4[C@@]5(C)CC[C@H](O)C(C)(C)[C@@H]5CC[C@]43C)[C@@H]12 | G | plaque count | 4.15 µg/mL |
| Oc1ccc([C@@H]2c3c(O)cc(O)cc3[C@H]3c4c(cc(O)cc4[C@@H]2[C@H]2c4cc(O)cc5c4[C@@H](c4cc(O)cc(O)c4[C@@H]2c2ccc(O)cc2)[C@H](c2ccc(O)cc2)O5)O[C@@H]3c2ccc(O)cc2)cc1 | - | MTT | 3.3 µM |
| C=Cc1cn([C@H]2C[C@H](O)[C@@H](CO)O2)c(=O)[nH]c1=O | 3345 | plaque count | 2 µM |
| CCNS(=O)(=O)OC[C@H]1O[C@@H](n2ccc(=O)[nH]c2=O)C(O)C1O | - | virus yield | 25 µg/mL |
| Nc1nc2c(ncn2C[C@H]2CS[C@H](P(=O)(O)O)O2)c(=O)[nH]1 | 186 | plaque count | >100 µg/mL |
| O=C(O)P(=O)(O)O | G-FIAC-C1 | plaque count | 66 µM |
| Nc1nc(=O)n([C@@H]2O[C@H](COP(=O)([O-])[O-])[C@@H](O)[C@H]2O)cc1F | MS | cytopathic effect | <0.5 µM |
| COC1=C2C[C@@H](C)C[C@@H](OC)[C@@H](O)[C@H](C)/C=C(\C)[C@@H](OC(N)=O)[C@H](OC)/C=C\C=C(/C)C(=O)NC(=CC1=O)C2=O | SAV | - | 4 µM |
| CC(=O)c1c(-c2ccc(Cl)c(Cl)c2)cc2ccccn12 | 186 | plaque count | 20 µM |
| Nc1ncnc2c1ncn2[C@H]1C[C@]12C[C@H]2CO | - | - | >50 µM |
| CC(=O)O[C@H]1CC2=CCC3C(CCC4(C)C(C(CCC=C(C)C)COS(=O)(=O)O)CCC34)C2(C)C[C@@H]1OS(=O)(=O)O | TYPE G | plaque count | 22.4 µg/mL |
| Cc1cn(N2C[C@H](CO)[C@H]2CO)c(=O)[nH]c1=O | - | cytopathic effect | >100 µg/mL |
| Cc1cc(O)c2c(=O)c3cccc(Cl)c3[nH]c2c1 | 186 | plaque count | >50 µM |
| CCc1cn([C@@H]2O[C@H](CO)[C@@H](O)[C@@H]2F)c(=O)[nH]c1=O | G | plaque count | 0.24 µM |
| Nc1nc2c(ncn2COCCO)c(=O)[nH]1 | Lovelace MS | plaque count | 0.8 µM |
| Nc1ncnc2c1ncn2[C@@H]1O[C@H](COP(=O)(O)CC(=O)O)[C@@H](O)[C@@H]1O | 3345 | plaque count | >2000 µM |
| Cc1ccc(Cc2c(O)cc(O)cc2[C@@H]2c3c(cc(O)cc3[C@H](C)[C@@H](c3ccc(O)cc3)c3c(O)cc(O)cc3C[C@H](Oc3cccc(O)c3)c3ccc(O)cc3)O[C@H]2c2ccc(O)cc2)cc1.O | - | MTT | 3.2 µM |
| CC(C)CCCC(COS(=O)(=O)O)C1CCC2C3CC=C4C[C@H](O)[C@@H](OS(=O)(=O)O)CC4(C)C3CCC12C | G | plaque count | 18.4 µg/mL |
| Nc1nc2c(ncn2CC[C@@H](O)CO)c(=O)[nH]1 | 72 | plaque count | 4 µM |
| Nc1nc2c(ncn2COCCO)c(=O)[nH]1 | - | cytopathic effect | 1.82 µM |
| NC1=NC2C(C=CN2CC(CO)CCO)C(=O)N1 | G | cytopathic effect | 11.3 µg/mL |
| COc1cc2c(cc1Oc1ccccc1)OC1C3=C(OCC21)C(=O)c1ccccc1C3=O | G | plaque count | 0.18 µg/mL |
| NC(=S)NC1N=C(c2ccccc2)SN1 | MS | - | 159.6 µg/mL |
| CCn1cc(C(N)=O)c(=O)c2cc(F)c(-c3ccncc3)cc21 | Curtis | plaque count | >100 µg/mL |
| NCC(CO)OCn1cnc2c(=O)[nH]c(N)nc21 | G | plaque count | 100 µM |
| CCOP(=O)(OCC)C1=NOC(n2cc(F)c(=O)[nH]c2=O)C1 | - | plaque count | >100 µM |
| CC1(C)C(OC2O[C@H](C(=O)O)[C@@H](O)[C@H](NC3[C@@H](O)[C@H](O)[C@@H](CO)O[C@@H]3O)[C@H]2OC2O[C@H](O)[C@@H](O)[C@H](O)[C@H]2C(=O)O)CC[C@@]2(C)C1CC[C@]1(C)C2C(=O)C=C2C3C[C@@](C)(C(=O)O)CC[C@]3(C)CC[C@]21C | - | cytopathic effect | >250 µg/mL |
| NC1=NCCN1CC(=O)O | MS | cytopathic effect | 12400 µM |
| Nc1ncnc2c1ncn2C1OC[C@H](CO)[C@H]1CO | - | cytopathic effect | >100 µg/mL |
| O=C(OC1COC(=O)c2cc(O)c(O)c(O)c2-c2c(cc(O)c(O)c2O)C(=O)OC1C1OC(=O)c2cc(O)c(O)c(O)c2-c2c(O)c(O)c(O)c3c2C(=O)OC1C3O)c1cc(O)c(O)c(O)c1 | - | XTT | 3.6 µM |
| CCCCCCCCCCCCCCCCOC(=O)NS(=O)(=O)OC[C@H]1O[C@@H](n2ccc(=O)[nH]c2=O)C2OC(C)(C)OC21 | - | virus yield | 25 µg/mL |
| CNc1cn([C@H]2C[C@H](O)[C@@H](CO)O2)c(=O)[nH]c1=O | MS | cytopathic effect | 32 µg/mL |
| Cc1cn([C@@H]2O[C@H](CO)[C@@H](O)[C@@H]2F)c(=O)[nH]c1=O | G-FAU-C2 | plaque count | 12 µM |
| CCCCCC(=O)OCC(CO)CCn1cnc2c(=O)[nH]c(N)nc21 | MS | plaque count | 15 µM |
| Nc1ncnc2c1ncn2C1C[C@@H](CO)[C@@H](CO)S1 | - | cytopathic effect | >100 µg/mL |
| Nc1[nH]c(=O)ncc1F | MS | cytopathic effect | >5000 µM |
| COc1ccc(/C=N/N=C(\N)NO)cc1.Cc1ccc(S(=O)(=O)O)cc1 | G | plaque count | >50 µM |
| Cc1cn(C2SC[C@H](CO)[C@H]2CO)c(=O)[nH]c1=O | - | cytopathic effect | >100 µg/mL |
| Cn1cc(C(=O)NCc2ccc(Cl)cc2)c(=O)c2cc(CN3CCOCC3)ccc21 | 35D | plaque count | 4.6 µM |
| Nc1nc2c(ncn2COCCO)c(=O)[nH]1 | MS | cytopathic effect | 1.25 µg/mL |
| Cn1cc(C(=O)NCc2ccc(Cl)cc2)c(=O)c2cc(CN3CCOCC3)ccc21 | MS-M1 | plaque count | >50 µM |

a–b is a range or a potency band. Conditions beyond the fields shown may differ between rows. ECn: concentration that inhibits the pathogen or its effect by n%.